Each structure is given as a SMILES string. This is one part of the list. Results filed as inconclusive are left out. Active and inactive are the calls of the source. The call rests on the fitted dose curve; tested in HEK293 reporter line.

This assay is described as follows: qHTS Assay for Foot and Mouth Disease Virus Antivirals: Primary Screen against the MLPCN compound library. Further: nearly all actives have a fitted effect of over 55% in size. To be noted: FMDV antiviral cell-based qHTS; at 57.9 µM (top of the series). On the technique in general: In qHTS, concentration-response curves come from the screen itself.
`COc1cc(C(=O)NCC2(N3CCOCC3)CCCCC2)cc(Cl)c1OC(C)C`: the activity, negative = inhibition was inactive: 3.92%.

Turning to `O=[As](O)(O)c1cccnc1`, the activity, negative = inhibition is inactive: -5.21%.

Take `CCOP(=O)(Nc1cccc2ccccc12)OCC`: the activity, negative = inhibition is inactive: -9.6%.

As to `COc1cc(C2NCCC3(OCCO3)C2(C)C)cc(OC)c1OC` (stereo not drawn), the activity, negative = inhibition was inactive: -2.67%.

`Nc1cccc2c([As](=O)(O)O)cccc12`: the activity, negative = inhibition was inactive: -8.68%.

For the compound `Cc1ccc(NCCc2c([N+](=O)[O-])cc([N+](=O)[O-])cc2[N+](=O)[O-])cc1`, the activity, negative = inhibition was inactive: -3.96%.

As for `CCCOP(=S)(Nc1nc(N)cc(=O)[nH]1)OCCC`, the activity, negative = inhibition was inactive: 7.06%.

For `Nc1ccccc1[As](=O)(O)c1ccccc1`, the activity, negative = inhibition was inactive: 3.75%.

Consider `O=C(O)COc1ccc([As](=O)(O)O)cc1[N+](=O)[O-]`, for which the activity, negative = inhibition was inactive: -6.22%.

As for `O=P(Nc1nccs1)(c1ccccc1)c1nc2ccccc2s1` (stereo not drawn), the activity, negative = inhibition was inactive: -0.486%.

In the case of `O=P(Nc1nccs1)(Oc1ccccc1)Oc1ccccc1`, the activity, negative = inhibition was inactive: 0%.

In the case of `CN(C(=O)Cc1ccccc1)[C@@H]1CC[C@]2(CCCO2)C[C@H]1N1CCCC1`, the activity, negative = inhibition was inactive: -12.9%.

As to `N#CCCN(C(=O)COC(=O)C(O)(c1ccccc1)c1ccccc1)c1ccc(F)cc1`, the activity, negative = inhibition is inactive: -22.7%.

For the compound `CN(C(=O)Cc1ccc(Cl)c(Cl)c1)[C@H]1CC[C@@]2(CCCO2)C[C@@H]1N1CCCC1`, the activity, negative = inhibition is inactive: -13.8%.

In the case of `O=[N+]([O-])c1ccc2c(c1)nnn2O`, the activity, negative = inhibition is inactive: 2.56%.

As for `NC(=O)Nc1ccc([As](=O)(O)O)cc1`, the activity, negative = inhibition was inactive: -21.3%.

On to `[N-]=[N+]=NC1CCCCC1NC(=O)c1cc([N+](=O)[O-])cc([N+](=O)[O-])c1` (stereo not drawn), for which the activity, negative = inhibition is inactive: -23.4%.

With `Cc1ccc(OP(=O)(Nc2ccc([N+](=O)[O-])cn2)Oc2ccc(C)cc2)cc1`, the activity, negative = inhibition is inactive: 61.1%.

As for `Cc1ccc2nc3c(c(C)c2c1)CC(C(Cl)Cl)S3` (stereo not drawn), the activity, negative = inhibition is inactive: 57.4%.

For the compound `COc1cc(C(=O)NCC2(N3CCOCC3)CCCCC2)ccc1OCC(C)C`, the activity, negative = inhibition is inactive: -7.01%.

On to `O=[N+]([O-])c1ccc(-c2cc([N+](=O)[O-])c(O)c([N+](=O)[O-])c2)cc1`, for which the activity, negative = inhibition was inactive: -22%.

On to `O=[As](O)(c1ccc(O)cc1)c1ccccc1O`, for which the activity, negative = inhibition is inactive: -2.77%.

With `C[As](=O)(O)c1cccc(C(=O)O)c1`, the activity, negative = inhibition is inactive: -11.5%.

For `O=[N+]([O-])c1cc([N+](=O)[O-])c(-c2ccn[nH]2)s1`, the activity, negative = inhibition was inactive: -29.4%.

As to `O=C(OC1CN2CCC1CC2)c1cccc2[nH]cnc12` (stereo not drawn), the activity, negative = inhibition was inactive: -7.38%.

In the case of `CCN(CC)C(=S)SC(NC=O)C(Cl)(Cl)Cl` (stereo not drawn), the activity, negative = inhibition was inactive: -12.1%.

`CC(C)NC(=O)NP(=O)(Oc1ccccc1)Oc1ccccc1`: the activity, negative = inhibition was inactive: 73.5%.

Turning to `ClCCSc1nnc(-c2cccnc2)o1`, the activity, negative = inhibition was inactive: 0%.

For `CC(C)c1ccc(OP(=O)(Nc2ccccn2)Oc2ccccc2F)cc1` (stereo not drawn), the activity, negative = inhibition was inactive: 42.9%.

For the compound `COC(=O)C1(C)COP(=O)(N2CCCCCC2)OC1` (stereo not drawn), the activity, negative = inhibition was inactive: -13.3%.

On to `O=P1(N(CCCl)CCCl)Nc2ccccc2N1`, for which the activity, negative = inhibition was inactive: 7.98%.

Turning to `O=P1(N(CCCl)CCCl)OCCCN1CCCl` (stereo not drawn), the activity, negative = inhibition is inactive: -10.8%.

On to `COc1cc(I)ccc1[As](=O)(O)O`, for which the activity, negative = inhibition is inactive: -4.16%.

As for `COc1ccc2nc(NP(=O)(c3ccccc3)c3ccccc3)sc2c1`, the activity, negative = inhibition was inactive: 39.4%.

With `Cc1c2c(nc3ccccc13)SC(C(Cl)Cl)C2` (stereo not drawn), the activity, negative = inhibition is inactive: 18.9%.

`Cc1cc(=O)[nH]c(N[N+](=O)[O-])n1`: the activity, negative = inhibition was inactive: -13.2%.

As for `O=C(OC1CN2CCC1CC2)C12CC3CC(CC(C3)C1)C2` (stereo not drawn), the activity, negative = inhibition is inactive: -5.04%.

As for `O=[N+]([O-])c1cc(Oc2ccc([N+](=O)[O-])cc2C(F)(F)F)cc([N+](=O)[O-])c1`, the activity, negative = inhibition was inactive: -1.69%.

On to `COc1ccc(N/C(=N/P(=O)(N2CCOCC2)N2CCOCC2)N2CCOCC2)cc1`, for which the activity, negative = inhibition is inactive: 1.68%.

On to `O=C(O)C(=O)c1ccc(N(CCCl)CCCl)cc1`, for which the activity, negative = inhibition is inactive: -4.18%.

Turning to `O=C(COc1ccccc1)OC1CN2CCC1CC2` (stereo not drawn), the activity, negative = inhibition was inactive: -15.6%.

Take `COC(=O)C1(C)COP(=O)(N2CCCC2)OC1` (stereo not drawn): the activity, negative = inhibition is inactive: -10.6%.

As for `O=C(OC1CN2CCC1CC2)c1cccc([N+](=O)[O-])c1` (stereo not drawn), the activity, negative = inhibition is inactive: -4.16%.

Regarding `CCOC(=O)c1ccc(NC(=O)C(C)(CCl)SC)cc1` (stereo not drawn), the activity, negative = inhibition is inactive: 61.2%.

For `COP(=O)(OC)N1CC1c1ccccc1` (stereo not drawn), the activity, negative = inhibition was inactive: -18.5%.

For `Cc1cc(SC(NC(=O)c2ccccc2)C(Cl)(Cl)Cl)nc(C(C)C)n1` (stereo not drawn), the activity, negative = inhibition is inactive: -24.7%.

As to `CCCCOc1ccc(C(=O)NCC2(N3CCCCC3)CCCCC2)cc1OC`, the activity, negative = inhibition was inactive: -17%.

`CCOC(=O)Nc1ccc([As](=O)(O)O)c(O)c1`: the activity, negative = inhibition was inactive: -14.8%.

`O=C(O)C(O)c1ccc(N(CCCl)CCCl)cc1` (stereo not drawn): the activity, negative = inhibition was inactive: -0.245%.

For `CC1CCNP(=O)(N(CCCl)CCCl)O1` (stereo not drawn), the activity, negative = inhibition was inactive: -12.8%.

For `O=P(Nc1ccccn1)(c1cccc2ccccc12)c1cccc2ccccc12`, the activity, negative = inhibition was inactive: -10.7%.

For the compound `Cc1cc(SC(NC=O)C(Cl)(Cl)Cl)ncn1` (stereo not drawn), the activity, negative = inhibition was inactive: -14.2%.

Turning to `CCOC(=O)Nc1cccc([As](=O)(O)O)c1`, the activity, negative = inhibition is inactive: 0.501%.

For the origin of these results see PubChem BioAssay AID1347131 (National Center for Advancing Translational Sciences (NCATS), 2019).
